Measured values from several laboratories, pooled; numbers as filed in NIAID ChemDB.

Common to all: growth or infection tests; species: Mycobacterium tuberculosis

MIC50, MIC90 and the like: level of inhibition, or share of isolates inhibited.

SMILES,setting,method,dose,read-out,strain or isolate,value
CCCCC(CC)CN1CN(CC(CC)CCCC)CC(C)(NCCNCc2cccc(C)c2)C1,,,,MIC,,6.25 µM
c1c[nH]c(Sc2ncnc3nc[nH]c23)n1,,,,MIC,H37Ra,>12.8 µg/mL
COc1ccc(CCNCCNCCC2=CCCCC2)cc1,,,,MIC,,12.5 µM
Nc1ccc(C(=O)NCC(=O)O)cc1,,,,MIC,H37Rv,>100 µg/mL
CC[C@H]1OC(=O)[C@H](C)[C@@H](O[C@H]2C[C@@](C)(OC)[C@@H](O)[C@H](C)O2)[C@H](C)[C@@H](O[C@@H]2O[C@H](C)C[C@H](N(C)C)[C@H]2O)[C@](C)(OC)C[C@@H](C)C(=O)[C@H](C)[C@@H](O)[C@]1(C)O,,,,MIC,ATCC 35828,>8 µg/mL
O=c1oc2ccc(Cl)cc2c(=S)n1-c1cccc(F)c1,14 d,,,MIC,My 331/88,2 µM
Nc1ccccc1-c1ccccn1,,,,MIC,H37Rv,50 µg/mL
CCOC(=O)C1=NN(c2ccccc2)C(=O)C1N=Nc1c(Br)cc(S(N)(=O)=O)cc1Br,,BACTEC,,MIC bound,H37Rv,>12.5 µg/mL
Cc1ccc(Sc2nc(Cl)nc3nc[nH]c23)cc1C,,,,MIC,H37Ra,>12.8 µg/mL
NNC(=O)c1ccncc1,,,,MIC,10S,0.1 µg/mL
NC(=O)c1cnccn1,,,,MIC,Isolate M49586,>900 µg/mL
Clc1ccc(CCNCCNCCc2ccccc2)c(Cl)c1,,,,MIC,,50 µM
CO[C@H]1/C=C/O[C@@]2(C)Oc3c(C)c(O)c4c(O)c(c(/C=N/N5CCN(C)CC5)c(O)c4c3C2=O)NC(=O)/C(C)=C\C=C\[C@H](C)[C@H](O)[C@@H](C)[C@@H](O)[C@@H](C)[C@H](OC(C)=O)[C@@H]1C,,,,MIC,1S,1 µg/mL
CN[C@@H]1[C@H](O[C@H]2[C@H](O[C@H]3[C@H](O)[C@@H](O)[C@H](N=C(N)N)[C@@H](O)[C@@H]3N=C(N)N)O[C@@H](C)[C@]2(O)C=O)O[C@@H](CO)[C@H](O)[C@H]1O,,,,MIC,TN1521 (BU),>2 µg/mL
S=c1[nH]c(=S)[nH]c(=S)[nH]1,,,,MIC,H37Rv,100 µg/mL
O=C1C=C(Br)c2c(-c3ccccc3)oc3cccc1c23,,BACTEC,12.5 µg/mL,inhibition,H37Rv,86%
O=[N+]([O-])c1ccc(O)cc1,,,,MIC,H37Rv,>100 µg/mL
Cc1ccc(C)c(CSc2nc(=O)[nH]c3nc[nH]c23)c1,,,6.25 µg/mL,inhibition,H37Rv,5%
CCN(CC)CC(=O)c1ccc(O)c(O)c1.Cl,,,,MIC,H37Rv,100 µg/mL
COc1ccc2oc(=O)n(-c3ccccc3)c(=S)c2c1,14 d,,,MIC,My 331/88,16 µM
NC(=O)Nc1ccc2c(c1)Cc1ccccc1-2,,,,MIC,H37Rv,>100 µg/mL
CC(NCCNC1CCCCCCC1)C12CC3CC(CC(C3)C1)C2,,,,MIC,,50 µM
NNC(=O)c1ccncc1,,resazurin,,MIC,Clinical isolate BRF 27,0.03 µg/mL
CO[C@H]1/C=C/O[C@@]2(C)Oc3c(C)c(O)c4c(O)c(c(/C=N/N5CCN(C/C=C/c6ccccc6)CC5)c(O)c4c3C2=O)NC(=O)/C(C)=C\C=C\[C@H](C)[C@H](O)[C@@H](C)[C@@H](O)[C@@H](C)[C@H](OC(C)=O)[C@@H]1C,,,,MBC,2227 (rifampin-resistant),0.4 µg/mL
CCCCCCCCCCCCCCNC(N)=O,,,,MIC,H37Rv,100 µg/mL
CC(=O)O[C@H]1CC[C@]2(C)C3CC[C@]4(C)C([C@H](C)CCCC(C)C)CCC4[C@]3(/C=N/O)n3c(=O)n(-c4ccccc4)c(=O)n3[C@]2(/C=N/O)C1,,resazurin,,MIC bound,H37Rv,>6.25 µg/mL
CCCCCc1cc(OC)c2ccccc2n1,,,,MIC,MT9,42 µg/mL
Cc1cccc(CSc2ccncc2)c1,,,,MIC,H37Ra,>12.8 µg/mL
CCCCOC(=O)/C(CCCC(=O)O)=N/O,,,,MIC,H37Rv,100 µg/mL
CCOc1c(N=Nc2ccccc2Cl)c(-c2ccccc2)nn1C(=S)S,,BACTEC,,MIC bound,H37Rv,>12.5 µg/mL
CO[C@H]1/C=C/O[C@@]2(C)Oc3c(C)c(O)c4c(=O)c(c5oc6cc(N7CCN(C(C)C)CC7)cc(=O)c6nc5c4c3=C2O)NC(=O)/C(C)=C\C=C\[C@H](C)[C@H](O)[C@@H](C)[C@@H](O)[C@@H](C)[C@H](OC(C)=O)[C@@H]1C,,,,MBC,31 (rifampin-resistant),0.4 µg/mL
CCOC(=O)c1cnc2ccccc2c1.Cl,,,,MIC,H37Rv,>100 µg/mL
Fc1ccc2oc(=S)n(-c3ccc(C(F)(F)F)cc3)c(=S)c2c1,21 d,,,MIC,My 331/88,4 µM
COC(=O)c1ccc(I)c(C)c1,,,,MIC,H37Rv,100 µg/mL
CO[C@H]1/C=C/O[C@@]2(C)Oc3c(C)c(O)c4c(O)c(c5c(c4c3C2=O)NC2(CCN(CC(C)C)CC2)N=5)=NC(=O)/C(C)=C\C=C\[C@H](C)[C@H](O)[C@@H](C)[C@@H](O)[C@@H](C)[C@H](OC(C)=O)[C@@H]1C,,,,MIC,Isolate 900241 drug-susceptible,0.125 µg/mL
COc1ccc(OC)c(CCNCCNCCCN2CCCC2=O)c1,,,,MIC,,12.5 µM
CCOc1ccccc1CNCCNCCc1ccccc1Cl,,,,MIC,,25 µM
CCCCCCCCCCCNCCNC[C@@H](C)O,,,,MIC,,50 µM
O=C(O)CCSCSCCC(=O)O,,,,MIC,H37Rv,>100 µg/mL
CC[C@H]1OC(=O)[C@H](C)[C@@H](O[C@H]2C[C@@](C)(OC)[C@@H](O)[C@H](C)O2)[C@H](C)[C@@H](O[C@@H]2O[C@H](C)C[C@H](N(C)C)[C@H]2O)[C@](C)(O)C[C@@H](C)CN(C)[C@H](C)[C@@H](O)[C@]1(C)O,,,,MBC,ATCC 35826,>8 µg/mL
NCC[C@H](O)C(=O)N[C@@H]1C[C@H](N)[C@@H](O[C@H]2O[C@H](CN)[C@@H](O)[C@H](O)[C@H]2O)[C@H](O)[C@H]1O[C@H]1O[C@H](CO)[C@@H](O)[C@H](N)[C@H]1O,,broth dilution / resazurin,,MIC,MDR12,1 µg/mL
CC12CC/C(=N\NC(=O)Cc3c[nH]c4ccccc34)C=C1CCC1C2CCC2(C)C(OC(=O)c3ccccc3)CCC12,,BACTEC,12.5 µg/mL,inhibition,H37Rv,27%
CCN(CC)CCCNc1cc(C)nc(C)c1.Cl,,,,MIC,H37Rv,>100 µg/mL
Cc1ccc2oc(=O)n(-c3ccc(C(F)(F)F)cc3)c(=S)c2c1,14 d,,,MIC,My 331/88,4 µM
NNc1ccccc1C(=O)O,,,,MIC,H37Rv,>100 µg/mL
CC(C)c1ccc2c(c1)CC[C@H]1[C@](C)(CNCCN[C@@H]3C[C@@H]4C[C@H]([C@H]3C)C4(C)C)CCC[C@]21C,,,,MIC,,50 µM
Cl.c1cc(NCCCCN2CCCCC2)nc(N2CCOCC2)n1,,,,MIC,H37Rv,>100 µg/mL
Cc1cc(O)c2c(c1)C(=O)C(c1c(C)cc3c(c1O)C(=O)C1OC1C3=O)=CC2=O,,,,MIC,TAC-R,0.8 µg/mL
CO[C@H]1/C=C/O[C@@]2(C)Oc3c(C)c(O)c4c(O)c(c(/C=N/N5CCN(C)CC5)c(O)c4c3C2=O)NC(=O)/C(C)=C\C=C\[C@H](C)[C@H](O)[C@@H](C)[C@@H](O)[C@@H](C)[C@H](OC(C)=O)[C@@H]1C,,,,MIC,TN800,>32 µg/mL
Cc1cc(C)c(C2=C(O)c3ccccc3C(=O)C2=O)c(C)c1,,,,MIC,H37Rv,100 µg/mL
COc1cc(OC)c2c(c1)Oc1cc(OC)cc(OC)c1C2,,BACTEC,,MIC bound,H37Rv,>12.5 µg/mL
O=[N+]([O-])c1ccc2c(c1)S(=O)(=O)c1ccccc1O2,,,,MIC,H37Rv,100 µg/mL
COC(=O)C(CO)NC(=O)C(Cc1ccccc1)NC(=O)OC(C)(C)C,,BACTEC,12.8 µg/mL,inhibition,H37Rv,23%
O=C1c2ccccc2C(=O)N1CCCOc1ccccc1,,,,MIC,H37Rv,>100 µg/mL
CN(C)c1ccc(/C=N/Nc2nnc(N/N=C/c3ccc(N(C)C)cc3Cl)c3ccccc23)c(Cl)c1,,BACTEC,,MIC bound,H37Rv,>12.5 µg/mL
c1ccc(CCCc2ccncc2)cc1,,,,MIC,H37Rv,100 µg/mL
COc1ccc(CCC2CCc3ccccc3N2C)cc1OC,,,,MIC,MT5,50 µg/mL
c1ccc(CSc2ncccn2)cc1,,,,MIC,H37Ra,>12.8 µg/mL
c1ccc(C(CNCCNCCN2CCOCC2)c2ccccc2)cc1,,,,MIC,,25 µM
CN(C)C(=O)Nc1c([N+](=O)[O-])cc(C(F)(F)F)cc1[N+](=O)[O-],,BACTEC,12.5 µg/mL,inhibition,H37Rv,93%
CC1(C)[C@H]2CC[C@@H](CNCCNCCN3CCOCC3)[C@@H]1C2,,,,MIC,,50 µM
S=C(S)NCCCn1ccnc1,,BACTEC,,MIC,H37Rv,≥128 µg/mL
CCCCC(CC)CN1CN(CC(CC)CCCC)CC(C)(NCCN[C@@H]2C[C@@H]3C[C@H]([C@H]2C)C3(C)C)C1,,,,MIC,,50 µM
O=C(CNC(=O)Nc1n[nH]c(=S)s1)N/N=C/c1ccccc1O,,BACTEC,,MIC bound,H37Rv,>12.5 µg/mL
O=C(Nc1ccc(C(=O)Nc2ccc3cc(S(=O)(=O)O)cc(O)c3c2)cc1)c1ccc([N+](=O)[O-])cc1,,,,MIC,H37Rv,>100 µg/mL
COC(=O)c1ccc(/C=C(\c2ccc([N+](=O)[O-])o2)S(=O)(=O)c2ccc(NC(C)=O)cc2)o1,,BACTEC,,MIC,H37Rv,≥12.5 µg/mL
C[C@H](NCCNCCCCc1ccccc1)C1CCCCC1,,,,MIC,,50 µM
Cc1cc(N(CCC#N)CCC#N)ccc1/C=C1\CN(N2C(=O)/C(=C\c3ccc(N(CCC#N)CCC#N)cc3C)N=C2c2ccccc2)C(c2ccccc2)=N1,,BACTEC,,MIC bound,H37Rv,>12.5 µg/mL
CC1CN(c2cc3c(cc2F)c(=O)c(C(=O)O)cn3-c2ccc(F)cc2F)CCN1,,,,MIC,ATCC 35830,0.5 µg/mL
Cc1nc2c([N+](=O)[O-])cccn2n1,,resazurin,,MIC bound,H37Rv,>6.25 µg/mL
C[C@H]1C[C@H](N)CN1c1cc2c(cc1F)c(=O)c(C(=O)O)cn2-c1ccc(F)cc1F,,,,MIC,ATCC 35822,2 µg/mL
CC1=C(O)NC(CC(=O)C(O)CO)=CN1,,BACTEC,12.5 µg/mL,inhibition,H37Rv,19%
COc1cccc(O)c1,,,,MIC,H37Rv,>100 µg/mL
CCOC(=O)c1cc(C(O)C(O)C(O)CO)oc1C,,BACTEC,12.5 µg/mL,inhibition,H37Rv,-2%
COc1ccc(CSc2ncnc3nc[nH]c23)cc1,,,6.25 µg/mL,inhibition,H37Rv,26%
COc1cc(/C=N/c2nncs2)ccc1O,,BACTEC,,MIC bound,H37Rv,>12.5 µg/mL
CO[C@H]1/C=C/O[C@@]2(C)Oc3c(C)c(O)c4c(O)c(c5c(c4c3C2=O)NC2(CCN(CC(C)C)CC2)N=5)=NC(=O)/C(C)=C\C=C\[C@H](C)[C@H](O)[C@@H](C)[C@@H](O)[C@@H](C)[C@H](OC(C)=O)[C@@H]1C,,,,MIC,Strain 72,1 µg/mL
CCCCCCCCCCc1c2nc(c(CCCCCCCCCC)c3ccc([nH]3)c(CCCCCCCCCC)c3ccc([nH]3)c(CCCCCCCCCC)c3nc1C=C3)C=C2,,resazurin,6.25 µg/mL,inhibition,H37Rv,-7%
NC1CCN(c2nc3c(cc2F)c(=O)c(C(=O)O)cn3-c2ccc(F)cc2F)C1,,,,MIC90,Drug-resistant,>8 µg/mL
COc1ccc(/C(=N\NC(=O)C(N)=O)C(c2ccc(OC)cc2)C2(O)C(=O)Nc3c(Cl)cccc32)cc1,,resazurin,,MIC,H37Rv,12.5 µg/mL
COc1ccccc1CCNCCNCCc1ccc(Cl)cc1Cl,,,,MIC,,50 µM

The last 7 rows once more:

| SMILES | setting | method | dose | read-out | strain or isolate | value |
|---|---|---|---|---|---|---|
| COc1ccc(CSc2ncnc3nc[nH]c23)cc1 |  |  | 6.25 µg/mL | inhibition | H37Rv | 26% |
| COc1cc(/C=N/c2nncs2)ccc1O |  | BACTEC |  | MIC bound | H37Rv | >12.5 µg/mL |
| CO[C@H]1/C=C/O[C@@]2(C)Oc3c(C)c(O)c4c(O)c(c5c(c4c3C2=O)NC2(CCN(CC(C)C)CC2)N=5)=NC(=O)/C(C)=C\C=C\[C@H](C)[C@H](O)[C@@H](C)[C@@H](O)[C@@H](C)[C@H](OC(C)=O)[C@@H]1C |  |  |  | MIC | Strain 72 | 1 µg/mL |
| CCCCCCCCCCc1c2nc(c(CCCCCCCCCC)c3ccc([nH]3)c(CCCCCCCCCC)c3ccc([nH]3)c(CCCCCCCCCC)c3nc1C=C3)C=C2 |  | resazurin | 6.25 µg/mL | inhibition | H37Rv | -7% |
| NC1CCN(c2nc3c(cc2F)c(=O)c(C(=O)O)cn3-c2ccc(F)cc2F)C1 |  |  |  | MIC90 | Drug-resistant | >8 µg/mL |
| COc1ccc(/C(=N\NC(=O)C(N)=O)C(c2ccc(OC)cc2)C2(O)C(=O)Nc3c(Cl)cccc32)cc1 |  | resazurin |  | MIC | H37Rv | 12.5 µg/mL |
| COc1ccccc1CCNCCNCCc1ccc(Cl)cc1Cl |  |  |  | MIC |  | 50 µM |

Blank or dashed fields: not listed here. MIC bound comes from a single tested concentration. Conditions beyond the fields shown may differ between rows. Inhibition is in % at the dose shown (toxicity tests: loss of growth or viability).